PubChem BioAssay AID504761 | Drosophila RNAi Screening Center – 2011
The deposit covers about 22,000 reagents; below is a random part of those that have a named target and a result. Over the whole deposit, 116 (0.52%) are marked active. 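Calls depend on retest data that are not deposited; infection was ranked per plate without normalising between plates; the unit of the infection score is not given.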 Raw values vary from plate to plate and are shown uncorrected. Unmarked entries are inactive. Not stated in the record: the amount of reagent, the time to read-out.

Purpose: 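Fly genes whose silencing reduces dengue virus type 2 infection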 (primary screen)
Cells: D.Mel-2 cells from Drosophila
Knock-down reagent: long dsRNA against Drosophila genes
Challenge: infection with dengue virus type 2; dose and infection time not stated
Measurement: 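Per well on two replicate plates, imaging gave the percent of cells positive for viral envelope protein, ranked by infection, and a nuclear count of cells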
Scale: infection score: higher = more virus-infected cells; cell count: higher = more cells in the well
Active means: 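Low infection ranks in the two replicates (chance level up to 0.065) followed by a retest with a 1.5-fold or larger significant decrease, p below 0.05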
Meaning of the calls: active = confirmed: knock-down lowers infection; inactive = not picked or not confirmed

Rack1 [DRSC03405] → infection score, replicate 1 = 3.35; infection score, replicate 2 = 2.03; cell count, replicate 1 = 4748; cell count, replicate 2 = 5161
Rack1 [DRSC23796] → infection score, replicate 1 = 1.23; infection score, replicate 2 = 2.06; cell count, replicate 1 = 5780; cell count, replicate 2 = 5818
CG34457 [DRSC06924] → infection score, replicate 1 = 5.31; infection score, replicate 2 = 25.8; cell count, replicate 1 = 6497; cell count, replicate 2 = 5189
Hsp60C [DRSC03036] → infection score, replicate 1 = 13.8; infection score, replicate 2 = 0.61; cell count, replicate 1 = 5448; cell count, replicate 2 = 6364
Hsp60C [DRSC29438] → infection score, replicate 2 = 13.6; cell count, replicate 1 = 298; cell count, replicate 2 = 5275
CG1635 [DRSC15131] → infection score, replicate 1 = 2.86; infection score, replicate 2 = 3.45; cell count, replicate 1 = 5986; cell count, replicate 2 = 6954
CG1635 [DRSC25487] → infection score, replicate 1 = 6.29; infection score, replicate 2 = 7.66; cell count, replicate 1 = 6388; cell count, replicate 2 = 5198
Nup44A [DRSC07248] → infection score, replicate 1 = 3.91; infection score, replicate 2 = 7.29; cell count, replicate 1 = 6188; cell count, replicate 2 = 6519
Nup44A [DRSC28141] → infection score, replicate 1 = 8.64; infection score, replicate 2 = 3.36; cell count, replicate 1 = 4781; cell count, replicate 2 = 6404

A portion taken from the entries so far:
Rack1 [DRSC23796] → infection score, replicate 1 = 1.23; infection score, replicate 2 = 2.06; cell count, replicate 1 = 5780; cell count, replicate 2 = 5818
CG34457 [DRSC06924] → infection score, replicate 1 = 5.31; infection score, replicate 2 = 25.8; cell count, replicate 1 = 6497; cell count, replicate 2 = 5189

More reagents:
Vsx1 [DRSC23004] → infection score, replicate 1 = 2.18; infection score, replicate 2 = 5.43; cell count, replicate 1 = 6229; cell count, replicate 2 = 6608
Vsx1 [DRSC25808] → infection score, replicate 1 = 2.15; infection score, replicate 2 = 2.42; cell count, replicate 1 = 6684; cell count, replicate 2 = 6742
CG15820 [DRSC08480] → infection score, replicate 1 = 13.2; infection score, replicate 2 = 11.9; cell count, replicate 1 = 5467; cell count, replicate 2 = 4675
CG15820 [DRSC27847] → infection score, replicate 1 = 0.65; infection score, replicate 2 = 6.02; cell count, replicate 1 = 616; cell count, replicate 2 = 798
CG11828 [DRSC14394] → infection score, replicate 1 = 3.63; infection score, replicate 2 = 12.3; cell count, replicate 1 = 6335; cell count, replicate 2 = 6721
CG11828 [DRSC22580] → infection score, replicate 1 = 5.31; infection score, replicate 2 = 2.69; cell count, replicate 1 = 6665; cell count, replicate 2 = 6313
CG11828 [DRSC29853] → infection score, replicate 1 = 4.87; infection score, replicate 2 = 9.05; cell count, replicate 1 = 6585; cell count, replicate 2 = 6516
